We go through one molecule from paper PMC6889146, “Structure of the African swine fever virus major capsid protein p72” (2019).

For this test, the target named is T1, African swine fever virus major capsid protein p72 (African swine fever virus), P22776.
T1 chain: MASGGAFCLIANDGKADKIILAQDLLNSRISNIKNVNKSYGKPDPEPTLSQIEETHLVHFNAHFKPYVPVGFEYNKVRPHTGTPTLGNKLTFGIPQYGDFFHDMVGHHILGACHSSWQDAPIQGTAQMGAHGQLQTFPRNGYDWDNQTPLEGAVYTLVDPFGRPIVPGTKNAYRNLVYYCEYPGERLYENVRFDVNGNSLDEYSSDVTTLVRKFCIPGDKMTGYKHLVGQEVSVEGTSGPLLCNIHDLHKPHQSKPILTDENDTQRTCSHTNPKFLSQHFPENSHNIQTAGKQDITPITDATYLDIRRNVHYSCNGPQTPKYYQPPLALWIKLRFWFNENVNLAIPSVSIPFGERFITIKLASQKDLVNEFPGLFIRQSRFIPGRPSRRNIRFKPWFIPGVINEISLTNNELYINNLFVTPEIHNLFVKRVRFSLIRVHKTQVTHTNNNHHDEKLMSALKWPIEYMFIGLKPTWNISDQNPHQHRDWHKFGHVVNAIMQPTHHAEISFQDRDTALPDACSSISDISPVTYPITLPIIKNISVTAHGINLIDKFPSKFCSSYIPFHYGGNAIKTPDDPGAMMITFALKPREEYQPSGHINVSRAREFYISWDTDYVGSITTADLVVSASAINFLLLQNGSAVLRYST
As to the kind of experiment: cryo-EM structure. The settings on record: remark: other sources report otherwise.

B1: African swine fever virus major capsid protein p72, P22776 1-646 (natural protein)
chain: T1 chain
What is called stoichiometry N is a count of units in the complex or per binding partner. In turn, B1 registered a stoichiometry N of 3.
